The text below walks through data of publication PMC2690590, “Functional recombinant MHC class II molecules and high-throughput peptide-binding assays” (Immunome Research, 2009).

The Kd is a measure of binding affinity in units of concentration.

The assay concerns the target DQA1*0501/DQB1*0201 (human). Description: AlphaScreen or HTRF.

As to “6xH Influenza A (PR8) HA 109–119 peptide …”, the dissociation constant (Kd) is 3.91 µM.
